Results of unrelated studies side by side (data: NIAID ChemDB).

All rows: whole-cell or culture tests; organism: HIV-1; cells: MT-4; read-out: EC50

ECn is the concentration giving n% inhibition of infection, replication or growth. Neighbouring rows are from separate reports. Blank or dashed fields: not listed here.

SMILES | strain or isolate | changes | read by | value
CCCN(C)C(=O)Oc1nsnc1-c1c(Cl)ccc(N)c1Cl | HE |  | cytopathic effect / MTT | 0.051 µM
CC(C)(C)[C@H](NC(=O)c1nc2ccccc2[nH]1)C(=O)N[C@@H](Cc1ccccc1)[C@H](O)[C@@H](CO)[C@H](Cc1ccccc1)NC(=O)[C@@H](NC(=O)c1nc2ccccc2[nH]1)C(C)(C)C | IIIB |  |  | >10 µM
O=C1C=C2CC(C3=C4CC(C5=C6C(C7C(C8CC9=CC(=O)O[C@@]9%10C[C@@H]8N8CCCC8%10)C8=CC(=O)O[C@@]89C[C@@H]7N7CCCC79)=C[C@@H]7C[C@@]6(OC5=O)C5CCCN57)[C@@H]5C[C@@]4(OC3=O)C3CCCN35)[C@@H]3C[C@@]2(O1)C1CCCN13 | NL4-3 |  | MTT | 66.6 µM
CC(C)(C)NC(=O)[C@@H]1CSCN1C(=O)[C@@H](O)[C@H](Cc1ccccc1)NC(=O)[C@H](CC(F)(F)F)NC(=O)COc1cccc2cnccc12 | IIIB |  | cytopathic effect / MTT | 0.008 µg/mL
Clc1cccc(C=Nc2nsc3ccccc23)c1 | IIIB |  | cytopathic effect / MTT | >9 µM
O=C1C=C2CC(C3=C4C(C5CC6=C(C7CC8=C(C9CC%10=CC(=O)O[C@@]%10%11C[C@@H]9N9CCCC9%11)C(=O)O[C@@]89C[C@@H]7N7CCCC79)C(=O)O[C@@]67C[C@@H]5N5CCCC57)=C[C@@H]5C[C@@]4(OC3=O)C3CCCN35)[C@@H]3C[C@@]2(O1)C1CCCN13 | NL4-3 |  | MTT | 99.1 µM
Cc1cc(C)c(-n2nnnc2SCC(=O)Nc2cccc([N+](=O)[O-])c2)c(C)c1 |  |  | p24 | <10 µM
Cn1ncc2c1S(=O)(=O)N(CCc1ccccc1)C(=O)N2CCc1ccc(Cl)cc1 | IIIB |  | MTT | >47.5 µM
O=c1cc(Cc2c(F)cccc2F)nc(SC2CCCC2)[nH]1 | IIIB |  | p24 | <0.08 µM
CC(C)(C)C[C@H](NC(=O)OCc1ccccc1)C(=O)N[C@@H](Cc1ccccc1)[C@@H](CO)[C@H](O)[C@H](Cc1ccccc1)NC(=O)[C@@H](NC(=O)OCc1ccccc1)C(C)(C)C | IIIB |  |  | 1.6 µM
Cc1cc(C)c(-n2nnnc2SCC(=O)Nc2ccccc2Cl)c(C)c1 |  |  | p24 | <10 µM
NC(N)=NCCC[C@H](N)C(=O)NC[C@@H]1OC(O[C@H]2[C@@H](O)[C@H](O[C@@H]3[C@@H](O)[C@H](NC(=O)[C@@H](N)CCCN=C(N)N)C[C@H](NC(=O)[C@@H](N)CCCN=C(N)N)[C@H]3O[C@H]3O[C@H](CNC(=O)[C@@H](N)CCCN=C(N)N)[C@@H](O)[C@H](O)[C@H]3NC(=O)[C@@H](N)CCCN=C(N)N)O[C@@H]2CO)[C@H](NC(=O)[C@@H](N)CCCN=C(N)N)[C@@H](O)[C@@H]1O | AZT-resistant Clinical isolate |  | cytopathic effect / MTT | 0.8 µM
Cn1ncc2c1S(=O)(=O)N(CCc1ccccc1)C(=O)N2CCc1ccccc1 | IIIB |  | MTT | >319.4 µM
CC(C)(C)[C@H](NC(=O)OCCc1nc2ccccc2[nH]1)C(=O)N[C@@H](Cc1ccccc1)[C@@H](O)[C@H](CO)[C@H](Cc1ccccc1)NC(=O)[C@@H](NC(=O)OCCc1nc2ccccc2[nH]1)C(C)(C)C | IIIB |  |  | 0.52 µM
CCOCn1c(Sc2cc(C)cc(C)c2)c(CC)c(=O)[nH]c1=S | A012D |  | cytopathic effect / MTT | 0.0027 µM
Cc1c(Cc2c(F)cccc2F)nc(SC2CCCC2)[nH]c1=O | IIIB |  | p24 | <0.04 µM
Cc1cc(C)c(-n2nnnc2SCC(=O)Nc2ccc(S(N)(=O)=O)cc2Cl)c(C)c1 |  |  | p24 | <10 µM
O=[N+]([O-])c1ccoc1C=Nc1nsc2ccccc12 | IIIB |  | cytopathic effect / MTT | >4 µM
O=C1C=C2CC(C3=C4CC(C5=C[C@@H]6C[C@@]7(OC(=O)C(C8CC9=C(C%10CC%11=CC(=O)O[C@@]%11%12C[C@@H]%10N%10CCCC%10%12)C(=O)O[C@@]9%10C[C@@H]8N8CCCC8%10)=C57)C5CCCN56)[C@@H]5C[C@@]4(OC3=O)C3CCCN35)[C@@H]3C[C@@]2(O1)C1CCCN13 | NL4-3 |  | MTT | 139 µM
Cc1cc(C)c(-n2nnnc2SCC(=O)Nc2ccc(C)cc2Br)c(C)c1 |  |  | p24 | <10 µM
O=C1Nc2ccc(Cl)cc2C(C#Cc2nccs2)(C2CC2)N1 | IIIB |  |  | <0.012 µM
Cn1ncc2c1S(=O)(=O)N(CCc1ccc(Br)cc1)C(=O)N2CCc1ccc(Br)cc1 | IIIB |  | MTT | >151.2 µM
O=C1Nc2ccc(Cl)cc2C(C#Cc2ccccn2)(C2CC2)N1 | IIIB |  |  | <0.025 µM
CCOCn1c(Sc2cc(C)cc(C)c2)c(CC)c(=O)[nH]c1=O | HE |  | cytopathic effect / MTT | 0.016 µM
CC(Sc1nnnn1-c1cccc2ccccc12)C(=O)Nc1ccccc1[N+](=O)[O-] |  |  | p24 | <10 µM
CCc1c(Cc2cc(C)cc(C)c2)n(COCCO)c(=O)[nH]c1=O | IIIB |  | cytopathic effect / MTT | 0.015 µM
Cc1cn([C@H]2C[C@H](N=[N+]=[N-])[C@@H](CO)O2)c(=O)[nH]c1=O | 263)(ddC |  | p24 | 0.07 µM
Fc1ccc2nc(/N=C/c3cccc(Cl)c3)sc2c1 | IIIB |  | cytopathic effect / MTT | >100 µM
CC(=O)c1ccc(C)cc1NC(C(N)=O)c1c(Cl)cccc1Cl | clinical isolate A012B AZT-sensitive |  | p24 | 0.0068 µM
O=C(CSc1nnnn1-c1c(Cl)cccc1Cl)Nc1ccccc1Cl |  |  | p24 | <10 µM
COc1ccc(-c2csc(/N=C/c3ccccc3)n2)cc1 | IIIB |  | cytopathic effect / MTT | >100 µM
CC(C)(C)[C@H](NC(=O)OCc1ccccc1)C(=O)N[C@@H](Cc1ccccc1)[C@H](O)[C@@H](CO)[C@H](Cc1ccccc1)NC(=O)[C@@H](NC(=O)OCc1ccccc1)C(C)(C)C | IIIB |  |  | >10 µM
Cn1ncc2c1S(=O)(=O)N(CCc1ccc(C(C)(C)C)cc1)C(=O)N2CCc1ccc(C(C)(C)C)cc1 | IIIB |  | MTT | >7.5 µM
CCCN(C)C(=O)Oc1nsnc1-c1c(Cl)ccc(OC)c1Cl | IIIB |  | cytopathic effect / MTT | 11 µM
CCOCn1c(Cc2cc(C)cc(C)c2)c(CC)c(=O)[nH]c1=O | IIIB |  | cytopathic effect / MTT | 0.0022 µM
CCc1cc(NCc2nc3c(Cl)ccc(Cl)c3o2)c(=O)[nH]c1C | MFE30(RT-P236L) | RT-P236L | antigen | <0.01 µM
O=[N+]([O-])c1ccccc1/C=N/c1nc2ccccc2s1 | IIIB |  | cytopathic effect / MTT | >25 µM
CNC(C)[C@H]1O[C@H](O[C@@H]2[C@@H](O)[C@H](O[C@@H]3OC[C@@](C)(O)[C@@H](NC)[C@@H]3O)[C@@H](NC(=O)[C@@H](N)CCCN=C(N)N)C[C@H]2NC(=O)[C@@H](N)CCCN=C(N)N)[C@H](NC(=O)[C@@H](N)CCCN=C(N)N)[C@@H](O)[C@@H]1O | NL4-3 |  | cytopathic effect / MTT | 24 µM
Cc1cc(C)c(-n2nnnc2SCC(=O)Nc2ccc(S(N)(=O)=O)cc2)c(C)c1 |  |  | p24 | <10 µM

A second listing of 6 rows from above:

SMILES	strain or isolate	changes	read by	value
CC(C)(C)[C@H](NC(=O)c1nc2ccccc2[nH]1)C(=O)N[C@@H](Cc1ccccc1)[C@H](O)[C@@H](CO)[C@H](Cc1ccccc1)NC(=O)[C@@H](NC(=O)c1nc2ccccc2[nH]1)C(C)(C)C	IIIB			>10 µM
O=C1Nc2ccc(Cl)cc2C(C#Cc2ccccn2)(C2CC2)N1	IIIB			<0.025 µM
CC(C)(C)[C@H](NC(=O)OCCc1nc2ccccc2[nH]1)C(=O)N[C@@H](Cc1ccccc1)[C@@H](O)[C@H](CO)[C@H](Cc1ccccc1)NC(=O)[C@@H](NC(=O)OCCc1nc2ccccc2[nH]1)C(C)(C)C	IIIB			0.52 µM
Clc1cccc(C=Nc2nsc3ccccc23)c1	IIIB		cytopathic effect / MTT	>9 µM
O=C1C=C2CC(C3=C4CC(C5=C6C(C7C(C8CC9=CC(=O)O[C@@]9%10C[C@@H]8N8CCCC8%10)C8=CC(=O)O[C@@]89C[C@@H]7N7CCCC79)=C[C@@H]7C[C@@]6(OC5=O)C5CCCN57)[C@@H]5C[C@@]4(OC3=O)C3CCCN35)[C@@H]3C[C@@]2(O1)C1CCCN13	NL4-3		MTT	66.6 µM
CC(C)(C)C[C@H](NC(=O)OCc1ccccc1)C(=O)N[C@@H](Cc1ccccc1)[C@@H](CO)[C@H](O)[C@H](Cc1ccccc1)NC(=O)[C@@H](NC(=O)OCc1ccccc1)C(C)(C)C	IIIB			1.6 µM